Measured values as given in patent US20110086041A1.

Key:
[1] = target: 92UG-gp140-Fd trimer (HIV-1 isolate 92UG037.8); experiment: SPR, 92UGgp140-Fd immobilized, 4D sCD4 flowing, two-step binding model
[2] = target: 92UG-gp140-Fd trimer (HIV-1 isolate 92UG037.8); experiment: SPR, 92UGgp140-Fd immobilized, 4D sCD4 flowing, two-step binding model (ka1)
[3] = target: 92UG-gp140-Fd trimer (HIV-1 isolate 92UG037.8); experiment: SPR, 92UGgp140-Fd immobilized, 4D sCD4 flowing, two-step binding model (kd1)

Substance: soluble four-domain CD4 (from UniProt P01730 26-394) (receptor)
- Kd [1]: 1.98 nM
- ka2 [1]: 0.0211 s⁻¹
- kd (second step of the two-step model) [1]: 0.000738 s⁻¹
- kon [2]: 239000 M⁻¹ s⁻¹
- koff [3]: 0.0141 s⁻¹
